Laboratory results from publication PMC11375810, “Novel Diacyl-hydrazide Compounds as Potential Therapeutics for Visceral Leishmaniasis” (ACS Omega, 2024).

System: intracellular L. donovani in THP-1 macrophage host cells
Assay: THP-1 macrophage infection assay: anti L. donovani activity
Details: L. donovani in THP-1 macrophages

Structure (SMILES)	reduction in antiparasitic activity compared to compound 1 [fold]	also measured
Cn1c(CC(=O)NNC(=O)c2ccccn2)nc2ccccc21 [Compound 13b, N′-(2-(1-Methyl-1H-benzo[d]imidazole-2-yl)acetyl)picolinohydrazide]	~23	–
Cc1ccc(-c2ccc(C(=O)NNC(=O)Cc3nc4ccccc4n3C)nc2)cc1 [Compound 17k, N′-(2-(1-Methyl-1H-benzo[d]imidazole-2-yl)acetyl)-5-(p-tolyl)picolinohydrazide]	–	increased activity against L. donovani compared to 1: ~10 fold
O=C(Cc1nc2ccccc2o1)NNC(=O)c1ccc2ccccc2n1 [Compound 5c, N′-(2-(Benzo[d]oxazol-2-yl)acetyl)quinoline-2-carbohydrazide]	> 25	–
O=C(Cc1nc2ccccc2s1)NNC(=O)c1ccc2ccccc2n1 [Compound 5b]	> 3	–
Cn1c(CC(=O)NNC(=O)c2cccc(-c3ccccc3)n2)nc2ccccc21 [Compound 13d, N′-(2-(1-Methyl-1H-benzo[d]imidazole-2-yl)acetyl)-6-phenylpicolinohydrazide]	–	lower antiparasitic activity than analogue 13e: > 10 fold
